In PubChem BioAssay (NCATS):
Where “and” joins values, the source holds several entries; their conditions need not be identical. Identical values can stand only once. The entries are a selection whose mix differs from that of the whole data set. Inconclusive results are not listed. For some assays here: Entries with a potency or affinity are not part of this list. Calls of active or inactive are those of the source. For most assays here, the call rests on the fitted dose curve; in most records, active means well fitted curve in the direction sought with a large enough effect; inconclusive means small, poorly fitted or top-dose-only effect, or another doubt; inactive means no such curve, though single readings can be large; an effect the other way counts as inactive or inconclusive.

Amino acid sequences for entries named in this document (tags omitted). A change or cut given only in a name is not applied to a line headed by its entry.
UniProt Q27686: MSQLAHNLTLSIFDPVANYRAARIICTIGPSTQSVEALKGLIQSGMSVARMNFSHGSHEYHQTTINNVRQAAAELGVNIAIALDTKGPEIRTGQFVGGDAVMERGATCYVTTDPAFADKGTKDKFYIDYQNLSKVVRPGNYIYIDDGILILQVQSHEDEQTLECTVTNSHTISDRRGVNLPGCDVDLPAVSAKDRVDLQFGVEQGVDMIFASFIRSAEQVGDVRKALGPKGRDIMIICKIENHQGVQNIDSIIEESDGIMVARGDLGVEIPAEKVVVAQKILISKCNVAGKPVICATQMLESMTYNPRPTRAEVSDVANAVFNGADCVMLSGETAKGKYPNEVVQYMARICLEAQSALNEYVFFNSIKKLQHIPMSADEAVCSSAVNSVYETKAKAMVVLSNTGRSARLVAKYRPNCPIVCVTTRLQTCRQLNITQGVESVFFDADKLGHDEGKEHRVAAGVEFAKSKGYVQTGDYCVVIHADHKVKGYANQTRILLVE
UniProt P13267: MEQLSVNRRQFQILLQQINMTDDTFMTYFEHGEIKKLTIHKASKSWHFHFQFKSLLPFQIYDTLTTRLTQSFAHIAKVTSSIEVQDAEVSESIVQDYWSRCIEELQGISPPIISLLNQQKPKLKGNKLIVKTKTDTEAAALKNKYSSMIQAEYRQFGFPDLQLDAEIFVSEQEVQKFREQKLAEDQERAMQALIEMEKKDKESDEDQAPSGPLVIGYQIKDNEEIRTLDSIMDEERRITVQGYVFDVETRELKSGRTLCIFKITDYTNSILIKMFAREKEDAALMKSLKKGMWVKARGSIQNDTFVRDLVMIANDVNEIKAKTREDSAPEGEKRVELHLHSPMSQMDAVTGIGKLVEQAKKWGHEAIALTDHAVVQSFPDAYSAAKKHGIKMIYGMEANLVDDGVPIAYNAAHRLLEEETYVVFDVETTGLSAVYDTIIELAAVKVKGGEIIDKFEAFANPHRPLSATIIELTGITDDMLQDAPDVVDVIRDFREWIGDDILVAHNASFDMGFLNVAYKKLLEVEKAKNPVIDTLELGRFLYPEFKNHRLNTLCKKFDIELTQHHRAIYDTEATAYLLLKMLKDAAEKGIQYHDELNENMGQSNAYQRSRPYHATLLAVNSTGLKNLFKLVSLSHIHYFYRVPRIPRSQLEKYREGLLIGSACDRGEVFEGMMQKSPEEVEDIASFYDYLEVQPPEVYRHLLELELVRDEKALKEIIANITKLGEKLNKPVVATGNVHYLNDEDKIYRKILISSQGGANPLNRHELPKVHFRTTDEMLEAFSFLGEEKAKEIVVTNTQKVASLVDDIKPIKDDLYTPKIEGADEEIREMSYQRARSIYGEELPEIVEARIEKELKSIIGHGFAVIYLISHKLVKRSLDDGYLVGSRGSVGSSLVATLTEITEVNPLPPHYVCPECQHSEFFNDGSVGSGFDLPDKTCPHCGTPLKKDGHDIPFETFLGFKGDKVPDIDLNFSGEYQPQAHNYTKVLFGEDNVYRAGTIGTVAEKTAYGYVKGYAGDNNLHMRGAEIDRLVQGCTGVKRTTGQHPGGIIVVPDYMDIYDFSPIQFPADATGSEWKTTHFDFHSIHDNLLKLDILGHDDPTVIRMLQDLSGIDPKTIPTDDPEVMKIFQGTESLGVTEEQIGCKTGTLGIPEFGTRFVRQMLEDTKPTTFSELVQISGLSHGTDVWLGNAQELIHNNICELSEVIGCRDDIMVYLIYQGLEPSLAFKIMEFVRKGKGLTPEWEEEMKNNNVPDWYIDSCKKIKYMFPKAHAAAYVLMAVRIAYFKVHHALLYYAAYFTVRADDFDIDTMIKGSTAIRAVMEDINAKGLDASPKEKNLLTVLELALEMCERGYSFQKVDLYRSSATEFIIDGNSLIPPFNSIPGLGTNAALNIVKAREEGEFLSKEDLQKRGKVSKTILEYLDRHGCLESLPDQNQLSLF
UniProt Q99816: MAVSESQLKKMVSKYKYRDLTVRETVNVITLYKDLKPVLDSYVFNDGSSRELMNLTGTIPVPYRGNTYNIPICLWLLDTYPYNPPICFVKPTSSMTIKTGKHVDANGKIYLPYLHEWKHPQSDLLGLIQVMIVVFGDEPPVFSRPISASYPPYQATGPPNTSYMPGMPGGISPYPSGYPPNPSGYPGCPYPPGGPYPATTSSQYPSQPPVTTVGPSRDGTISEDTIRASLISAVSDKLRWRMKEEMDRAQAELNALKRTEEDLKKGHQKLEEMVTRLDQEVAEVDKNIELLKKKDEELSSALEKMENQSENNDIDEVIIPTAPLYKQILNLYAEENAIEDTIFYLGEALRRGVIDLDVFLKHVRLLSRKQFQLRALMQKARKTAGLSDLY
UniProt P09992: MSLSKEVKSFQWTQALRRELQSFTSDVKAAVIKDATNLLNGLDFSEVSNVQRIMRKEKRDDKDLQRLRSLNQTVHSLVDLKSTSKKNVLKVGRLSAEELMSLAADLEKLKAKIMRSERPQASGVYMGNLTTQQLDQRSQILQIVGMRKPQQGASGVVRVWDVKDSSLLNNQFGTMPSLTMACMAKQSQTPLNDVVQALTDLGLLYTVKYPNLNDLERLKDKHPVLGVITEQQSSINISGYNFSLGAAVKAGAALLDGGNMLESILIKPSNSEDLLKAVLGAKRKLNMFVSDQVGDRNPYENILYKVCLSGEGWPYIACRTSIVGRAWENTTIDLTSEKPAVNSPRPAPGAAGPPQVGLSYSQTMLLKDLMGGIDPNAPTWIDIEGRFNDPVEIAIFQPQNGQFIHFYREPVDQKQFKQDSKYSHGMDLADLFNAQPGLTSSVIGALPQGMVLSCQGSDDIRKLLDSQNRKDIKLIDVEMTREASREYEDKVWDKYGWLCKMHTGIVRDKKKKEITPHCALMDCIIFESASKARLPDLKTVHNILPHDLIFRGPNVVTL
UniProt O15648: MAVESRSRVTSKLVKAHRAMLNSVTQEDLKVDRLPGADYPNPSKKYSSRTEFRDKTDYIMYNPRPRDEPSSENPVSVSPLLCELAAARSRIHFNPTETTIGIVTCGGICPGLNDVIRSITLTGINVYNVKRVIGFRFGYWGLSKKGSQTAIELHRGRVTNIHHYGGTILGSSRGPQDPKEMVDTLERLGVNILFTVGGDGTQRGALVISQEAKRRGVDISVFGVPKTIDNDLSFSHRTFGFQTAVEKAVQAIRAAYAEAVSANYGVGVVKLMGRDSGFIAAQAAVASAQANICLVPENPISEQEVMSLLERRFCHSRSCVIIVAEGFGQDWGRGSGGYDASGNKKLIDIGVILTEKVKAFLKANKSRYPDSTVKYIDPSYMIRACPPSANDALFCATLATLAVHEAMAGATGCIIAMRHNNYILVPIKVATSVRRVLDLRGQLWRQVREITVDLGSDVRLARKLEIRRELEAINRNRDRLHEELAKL

Key:
[1] = target: Pyruvate kinase (Leishmania mexicana) (UniProt Q27686); assay: qHTS Validation Assay for Inhibitors of Leishmania Mexicana Pyruvate Kinase (AID 945);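 further: 0% = DMSO only neutral control wells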; details: purified L. mexicana pyruvate kinase, enzyme activity, E451W mutant enzyme; at 57.5 µM (top of the series)
Procedure, shortened: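 Eight-point qHTS titrations in triplicate, data normalized to DMSO neutral control. Reaction: 0.2 nM LmPYK E451W mutant, 0.5 mM PEP, 0.1 mM ADP, 7 mM MgCl2, pH 7.2, one hour at room temperature; luminescent ATP detection.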

[2] = target: Endonuclease 4 (Escherichia coli (strain K12)) (UniProt P0A6C1); assay: Counterscreen for APE1 Inhibitors: qHTS Validation Assay for Inhibitors of Endonuclease IV (AID 1708); further: on the % scale 0 is the no-effect control and ±100 the full control effect; details: E. coli endonuclease IV, DNA cleavage fluorescence; at 57.1 µM (top of the series)
Procedure, shortened: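 Incision of a double-stranded 50 nM TAMRA/BHQ-2 abasic substrate was followed kinetically (525/598 nm, reads every 60 s) after 15 min enzyme–compound preincubation with 2 nM EndoIV in pH 7.5 Tris buffer with MgCl2, DTT and Tween-20; concentration-response format.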

[3] = qHTS for differential inhibitors of proliferation of Plasmodium falciparum line D10 (AID 1877); details: at 28.7 µM (top of the series);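 further: parasites grown with compound for 72 h before DNA staining; plate controls were vehicle wells for no effect and reference inhibitor wells for full effect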
[4] = qHTS for differential inhibitors of proliferation of Plasmodium falciparum line Dd2 (AID 1882); details: Plasmodium falciparum Dd2 proliferation inhibition; further: potency means the concentration at half of the fitted maximal effect; nearly all actives have a fitted effect of over 65% in size
Procedure, shortened: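 SYBR Green DNA fluorescence (ex 485, em 535 nm) after overnight lysis quantifies parasite growth; compound exposure lasted 72 h at 37 C on infected red cells at 2.5% hematocrit, 0.3% parasitemia (final). Artemisinin 0.29 uM and vehicle wells define normalization.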

[5] = Validation screen for inhibitors of Lassa infection (AID 463096; calls by dose curve; further: on the % scale 0 is the no-effect control and ±100 the full control effect); details: Lassa virus infection, cell-based; at 46.1 µM (top of the series)
[6] = target: DNA polymerase III PolC-type (Bacillus subtilis (strain 168)) (UniProt P13267); assay: qHTS Validation Assay for the Inhibitors of DNA Replication in Gram-Positive Bacteria (AID 485295); details: Gram-positive bacterial DNA replication assay; at 57.1 µM (top of the series);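 further: PicoGreen fluorescence of double-stranded DNA made on primed circular M13 template; 0% = DMSO wells and -100% = EDTA-quenched background wells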
Procedure, shortened: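 Reconstituted B. subtilis holoenzyme (Pol III, beta clamp, SSB, primase) was preincubated with compound at room temperature, then given single-stranded circular M13Gori plus dNTPs and NTPs. EDTA-containing PicoGreen stopped the reaction, and dsDNA product was read by fluorescence.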

[7] = target: Tumor susceptibility gene 101 protein (Homo sapiens) (UniProt Q99816); assay: qHTS Validation Assay for Iinhibitors of HIV-1 Budding by Blocking the Interaction of PTAP/TSG101 (AID 485342; calls by dose curve; further: 0% is about no effect); details: TSG101-PTAP binding, fluorescence polarization, 4-point titration; at 115 µM (top of the series)
Procedure, shortened: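 Tsg101 binding domain (10 uM final) in pH 7.5 HEPES/NaCl/Tween 20/EDTA/TCEP buffer was mixed with pin-transferred compounds, then FITC-labeled PTAP peptide (50 nM final) was added; after 20 min at r.t., fluorescence polarization was read.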

[8] = Quantitative high throughput screen for delayed death inhibitors of the malarial parasite plastid, 96 hour incubation (AID 488745); details: Plasmodium falciparum growth; at 28.7 µM (top of the series); further: on the % scale 0 is the no-effect control and ±100 the full control effect; nearly all actives have a fitted effect of over 70% in size
Procedure, shortened: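 Decreased firefly luciferase luminescence indicates inhibited growth of reporter-integrated P. falciparum after two generations (96 h, 37 C, 5% CO2). Infected erythrocytes at 0.1% parasitemia, 2% hematocrit, in Albumax-supplemented RPMI 1640.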

[9] = Quantitative high throughput screen for delayed death inhibitors of the malarial parasite plastid, 48 hour incubation (AID 488752); details: Plasmodium falciparum growth; at 28.7 µM (top of the series); further: on the % scale 0 is the no-effect control and ±100 the full control effect; nearly all actives have a fitted effect of over 65% in size
Procedure, shortened: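 One-generation (48 h) growth assay: a decrease in luciferase signal from an integrated reporter in P. falciparum-infected red cells (0.1% parasitemia, 2% hematocrit) after compound exposure at 37 C indicates parasite inhibition.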

[10] = target: Phosphoglycerate kinase, glycosomal (Trypanosoma brucei brucei) (UniProt P07378); assay: qHTS Validation Assay to Find Inhibitors of Phosphoglycerate Kinase (AID 504547); details: enzymatic PGK inhibition, coupled luminescence read-out; at 57.5 µM (top of the series);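 further: control wells lack PGK and mark full inhibition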
Procedure, shortened: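 Luminescence end-point (Kinase-Glo Plus, 10 min) after a 60 min room-temperature coupled reaction. GAPDH at 100nM final supplies 1,3-BPG to PGK. Buffer: 100mM TEA pH 7.6, 5mM MgCl2, 0.01% Tween-20. Wells lacking PGK served as controls.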

[11] = target: phosphoglycerate mutase (Leishmania major) (UniProt Q4Q090); assay: qHTS Validation Assay to Find Inhibitors of Phosphoglycerate Mutase (AID 504548); details: biochemical enzyme activity; at 57.5 µM (top of the series); further: on the % scale 0 is the no-effect control and ±100 the full control effect
Procedure, shortened: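 Luminescent end-point read-out via Kinase-GloPlus after a 10-minute development. Reaction: 1.25nM Leishmania major PGAM with substrate and compound, 45 minutes at room temperature in TEA buffer (pH 7.6) with MgCl2 and Tween-20.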

[12] = qHTS of Trypanosoma Brucei Inhibitors: LOPAC Validation (AID 624147); details: Trypanosoma brucei growth inhibition; at 57.5 µM (top of the series); further: 0% is about no effect
Procedure, shortened: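 Luminescent Kinase-Glo Plus end-point after 45 min room-temperature reaction of T. brucei pyruvate kinase started with 130 uM ADP (final). Buffer TEA 50 mM pH 7.2 with KCl, MgCl2, BSA, Tween-20; titration-based qHTS with fitted concentration-effect curves.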

[13] = qHTS assay for measurement of the activity of small molecule inhibitors on Zika virus induced Caspase-3 activity in human astrocytoma cells (AID 1224859); details: SNB-19 ZIKV-induced caspase-3/7, luminescence, 6 h; at 45.7 µM (top of the series) unless noted;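 further: plate controls were ZIKV-infected untreated cells for no effect and uninfected cells for full effect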
[14] = qHTS for Inhibitors of the Functional Ribonucleoprotein Complex (vRNP) of Lassa (LASV) Arenavirus: LASV Primary Screen - GLuc reporter signal (AID 1347082; calls by dose curve; tested in HEK293 reporter line; further: on the % scale 0 is the no-effect control and ±100 the full control effect; nearly all actives have a fitted effect of over 60% in size); details: LASV minigenome vRNP, Gaussia luciferase reporter; at 57.5 µM (top of the series) unless noted
[15] = qHTS for Inhibitors of the Functional Ribonucleoprotein Complex (vRNP) of Lassa (LASV) Arenavirus: Viability assay - alamar blue signal for LASV Primary Screen (AID 1347083; calls by dose curve; tested in HEK293 reporter line; further: on the % scale 0 is the no-effect control and ±100 the full control effect; nearly all actives have a fitted effect of over 80% in size); details: cell viability, alamar blue fluorescence (LASV minigenome counter-screen); at 57.5 µM (top of the series) unless noted
[16] = qHTS for Inhibitors of the Functional Ribonucleoprotein Complex (vRNP) of Lymphocytic Choriomeningitis Arenaviruses (LCMV): Viability assay - alamar blue signal for LCMV Primary Screen (AID 1347085; calls by dose curve; tested in HEK293 reporter line; further: on the % scale 0 is the no-effect control and ±100 the full control effect; nearly all actives have a fitted effect of over 80% in size); details: alamar blue viability counter-screen, LCMV vRNP screen cells; at 57.5 µM (top of the series) unless noted
[17] = target: Nucleoprotein (Lymphocytic choriomeningitis virus (strain Armstrong)) (UniProt P09992); assay: qHTS for Inhibitors of the Functional Ribonucleoprotein Complex (vRNP) of Lymphocytic Choriomeningitis Arenaviruses (LCMV): LCMV Primary Screen - GLuc reporter signal (AID 1347086; calls by dose curve; further: on the % scale 0 is the no-effect control and ±100 the full control effect; nearly all actives have a fitted effect of over 70% in size); details: LCMV minigenome vRNP cell assay, Gaussia luciferase reporter; at 57.5 µM (top of the series) unless noted
[18] = tested on: Zika virus NS2B-NS3 protease; assay: Primary screen GU AMC qHTS for Zika virus inhibitors (AID 1347154); details: Zika NS2B-NS3 unlinked protease, AMC fluorogenic substrate; at 54.1 µM (top of the series) unless noted;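 further: 0% = no-inhibitor control and -100% = no-enzyme control; nearly all actives have a fitted effect of over 70% in size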
[19] = Ebola virus entry assay, ratio channel
[20] = Ebola virus entry assay, green channel fluorescence
[21] = qHTS assay for measurement of the activity of small molecule inhibitors on Zika virus induced Caspase-3 activity in human iPSC derived neural progenitor cells (hNPCs) (AID 1224857); details: hNPCs ZIKV-induced caspase-3/7, Caspase-Glo luminescence, 6 h; at 45.7 µM (top of the series) unless noted; further: % of control where 0% means no effect; nearly all actives have a fitted effect of over 65% in size
[22] = NS1 protein of Zika virus - qHTS assay to identify small molecule inhibitors in human HEK 293 cells (AID 1347053); details: HEK293 ZIKV MR766 infection, NS1 TR-FRET, 24 h; at 46.1 µM (top of the series) unless noted;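 further: plate controls were infected untreated cells for no effect and uninfected cells for full effect; nearly all actives have a fitted effect of over 55% in size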
[23] = Primary qHTS for inhibitors of La Crosse Virus (LACV) - induced cell death in SH-SY5Y cells (AID 1508616); details: SH-SY5Y LACV cytopathicity rescue, ATP luminescence, 6 d; at 9.63 µM (top of the series) unless noted;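 further: top concentration of the series differs between compounds; 0% = infected DMSO wells and 100% = uninfected DMSO wells; higher means more rescue of cells from virus-induced death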
Procedure, shortened: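 Rescue of virus-induced death was read as ATPLite luminescence after 6 days at 37C, scaled between DMSO wells with LACV and without virus. Cells were SH-SY5Y, 6000/well, infected at 0.01 MOI after compound addition.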

[24] = target: ATP-dependent 6-phosphofructokinase (Trypanosoma brucei brucei) (UniProt O15648); assay: qHTS Assay to Find Inhibitors of T. brucei phosphofructokinase: hit validation (AID 492961);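 further: luminescence reports ADP formed as PFK phosphorylates fructose-6-phosphate with ATP; on the % scale 0 is the no-effect control and ±100 the full control effect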; details: T. brucei PFK, ADP-Glo luminescence; at 51.4 µM (top of the series)
Procedure, shortened: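 Measures ADP output of PFK (1.25 nM) at 0.1 mM ATP, 0.5 mM F6P, pH 8.0 TEA buffer with 5 mM MgCl2. No-enzyme wells define full inhibition; uninhibited enzyme wells define zero.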

[25] = Ebola virus entry assay, blue channel fluorescence
[26] = Ebola virus entry assay, reporter ratio channel; Channel type: primary
[27] = Ebola virus entry assay, blue channel (ratio component)

In the case of `CN(C(=O)Cc1ccc(Cl)c(Cl)c1)[C@@H]1CC[C@@]2(CCCO2)C[C@H]1N1CCCC1`, the activity change, negative = inhibition [1] is reported as inactive: 6.17%.

For `CN(CCCl)Cc1cc(Cl)c(NC2=NCCN2)c(Cl)c1`, the activity change, negative = inhibition [1] was inactive: -6.7%, the activity change, negative = inhibition [2] was inactive: -8.03% and the activity change, negative = inhibition [3] was inactive: -13.7%. The Potency [4] was active: 11.2 µM, the activity change, negative = inhibition [5] was inactive: -30.3% and the activity change, negative = inhibition [6] was inactive: 6.11%. The fluorescence change [7] was inactive: 3.85%, the activity change, negative = inhibition [8] was inactive: 6.68% and the activity change, negative = inhibition [9] was inactive: -1.49%. For the same compound, the activity, negative = inhibition [10] was inactive: 9.38%, the activity change, negative = inhibition [11] was inactive: -1.6% and the activity change, negative = inhibition [12] was inactive: 4.56%. For the same compound, the activity change, negative = inhibition [13] was inactive: 5.19%, the activity change, negative = inhibition [14] was inactive: 2.03% and the activity change, negative = reduced viability [15] was inactive: 0.194%. The activity change, negative = lower viability [16] was inactive: -0.958%, the activity change, negative = inhibition [17] was inactive: 3.14% and the activity change, negative = inhibition [18] was inactive: 14.2%.

For `CCNC(C)Cc1ccc2c(c1)OCO2` (configuration not stated), the outcome [19] was “inactive”, the outcome [20] was “inactive” and the activity change, negative = inhibition [21] was inactive: 9.97% [at 92.8 µM]. For the same compound, the activity change, negative = inhibition [13] was inactive: -28.4% [at 92.8 µM], the activity change, negative = inhibition [22] was inactive: -20% [at 92.8 µM] and the activity change, negative = inhibition [14] was inactive: 3.81% [at 115 µM]. For the same compound, the activity change, negative = reduced viability [15] was inactive: 8.86% [at 115 µM], the activity change, negative = lower viability [16] was inactive: 10.2% [at 115 µM] and the activity change, negative = inhibition [17] was inactive: 7.08% [at 115 µM]. For the same compound, the activity change, negative = inhibition [18] was inactive: 2.1% [at 104 µM] and the activity change [23] was inactive: -16.4%.

For `CN(C(=O)Cc1ccc(Cl)c(Cl)c1)[C@@H]1CCCC[C@H]1N1CCCC1`, the activity change, negative = inhibition [1] was inactive: 3.09% and inactive: 12.4% and inactive: -9.83%, the activity change, negative = inhibition [2] was inactive: -2.81% and the activity change, negative = inhibition [9] was inactive: -16.4%. For the same compound, the activity change, negative = inhibition [18] was inactive: -0.292%.

For `CN(C(=O)Cc1ccccc1)[C@H]1CC[C@@]2(CCCO2)C[C@@H]1N1CCCC1`, the activity change, negative = inhibition [24] was inactive: -3.96%, the outcome [25] was “inactive” and the outcome [19] was “inactive”. The outcome [26] was “inactive”, the outcome [27] was “inactive” and the activity change, negative = inhibition [21] was inactive: -1.01%. The activity change, negative = inhibition [13] was inactive: -0.842%, the activity change, negative = inhibition [22] was inactive: -2.47% and the activity change, negative = inhibition [14] was inactive: 4.56%. For the same compound, the activity change, negative = reduced viability [15] was inactive: 9.58%, the activity change, negative = lower viability [16] was inactive: 8.69% and the activity change, negative = inhibition [17] was inactive: 33.3%. For the same compound, the activity change, negative = inhibition [18] was inactive: 5.51% and the activity change [23] was inactive: -0.542% [at 4.29 µM].

In the case of `CC(=O)C1=CCCC2CCC1N2` (configuration not stated), the activity change, negative = inhibition [14] is reported as inactive: -6.82%, the activity change, negative = reduced viability [15] is reported as inactive: 12.5% and the activity change, negative = lower viability [16] is reported as inactive: 23.7%. The activity change, negative = inhibition [17] was inactive: -0.821% and the activity change, negative = inhibition [18] was inactive: 1.28%.

With `CN(C(=O)Cc1ccc(Cl)c(Cl)c1)[C@H]1CC[C@@]2(CCCO2)C[C@@H]1N1CCCC1` the activity change, negative = inhibition [21] was inactive: 11.7%, the activity change, negative = inhibition [13] was inactive: -6.31% and the activity change, negative = inhibition [22] was inactive: 4.02%. For the same compound, the activity change, negative = inhibition [14] was inactive: 1.47%, the activity change, negative = reduced viability [15] was inactive: 16.4% and the activity change, negative = lower viability [16] was inactive: 6.91%. The activity change, negative = inhibition [17] was inactive: 0.32%, the activity change, negative = inhibition [18] was inactive: -4% and the activity change [23] was inactive: 4.81% [at 4.29 µM].
